PubChem BioAssay AID1259414 | Drosophila RNAi Screening Center | 2018

Assay: 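Fly genes that alter Wolbachia amount inside host cells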 (primary screen)
Cell system: Drosophila JW18 cells infected with Wolbachia
Reagents: long dsRNA against Drosophila genes, 0.25 µg dsRNA per well of a 384-well plate
Timing: 5 days
Treatment: cells persistently infected with Wolbachia before knock-down; no added drug
Read-out: 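Automated imaging of bacterial rRNA staining divided by host cell count, reported as plate-normalised robust z-score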
Direction: Wolbachia per cell robust z: higher = more Wolbachia per host cell than the plate typical
Rule for the call: 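Active if absolute robust z reaches 1.5 in two or more of three replicates, leaving out multi- or no-target dsRNAs, genes unexpressed in JW18 and A1 wells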
The screen tested about 24,000 reagents; below is a random part of those with a known target gene and a result. In the full data, about 1,210 (5%) were called active. 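Inactive calls also include excluded dsRNAs with several or no targets, genes unexpressed in JW18, and well A1, regardless of score.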 A plus sign joins genes that one reagent is predicted to hit.

gene | amplicon | Wolbachia per cell robust z, rep 1 | Wolbachia per cell robust z, rep 2 | Wolbachia per cell robust z, rep 3 | outcome
MED28 (Mediator complex subunit 28) | DRSC15721 | 0.0978 | -2.41 | -0.101 | inactive
Coq4 + frc | DRSC10381 | 0.223 | 0.982 | 0.983 | inactive
Coq4 + frc | DRSC10382 | -1.56 | -3.33 | -2.64 | inactive
eRF3 (eukaryotic translation release factor 3) | DRSC03322 | -0.156 | 0.947 | 0.317 | inactive
Spn28B (Serpin 28B) | DRSC02982 | 0.396 | 1.02 | 0.095 | inactive
Taf5 (TBP-associated factor 5) | DRSC07562 | 0.927 | 0.322 | 0.0245 | inactive
Taf5 (TBP-associated factor 5) | DRSC29351 | -0.155 | -0.153 | 0.276 | inactive
Frq2 (Frequenin 2) | DRSC20245 | -0.219 | 0.929 | 0.294 | inactive
Frq2 (Frequenin 2) | DRSC26037 | 0.706 | 1.19 | 0.777 | inactive
Oseg5 (Outer segment 5) | DRSC03209 | -0.36 | -0.265 | 0.996 | inactive
CG33766 | DRSC37843 | 0.567 | -1.77 | -2.16 | inactive
LKRSDH (Lysine ketoglutarate reductase/saccharopine dehydrogenase) | DRSC03015 | 0.229 | 0.404 | 0.247 | inactive
LKRSDH (Lysine ketoglutarate reductase/saccharopine dehydrogenase) | DRSC24572 | 0.471 | -0.639 | 0.268 | inactive
Cenp-C (Centromeric protein-C) | DRSC14371 | 1.55 | 0.796 | 2.86 | inactive
Cenp-C (Centromeric protein-C) | DRSC29707 | -5.08 | 1.11 | -9.86 | inactive
Gcn2 | DRSC16678 | 0.358 | -0.748 | -3.11 | inactive

Next part (5 carried over from the part before).
gene | amplicon | Wolbachia per cell robust z, rep 1 | Wolbachia per cell robust z, rep 2 | Wolbachia per cell robust z, rep 3 | outcome
LKRSDH (Lysine ketoglutarate reductase/saccharopine dehydrogenase) | DRSC03015 | 0.229 | 0.404 | 0.247 | inactive
LKRSDH (Lysine ketoglutarate reductase/saccharopine dehydrogenase) | DRSC24572 | 0.471 | -0.639 | 0.268 | inactive
Cenp-C (Centromeric protein-C) | DRSC14371 | 1.55 | 0.796 | 2.86 | inactive
Cenp-C (Centromeric protein-C) | DRSC29707 | -5.08 | 1.11 | -9.86 | inactive
Gcn2 | DRSC16678 | 0.358 | -0.748 | -3.11 | inactive
Mekk1 | DRSC16302 | 1.14 | 0.98 | 2.51 | inactive
Mekk1 | DRSC16303 | 1.26 | 1.48 | 0.856 | inactive
CG6276 | DRSC16007 | -0.428 | -0.0319 | -0.222 | inactive
CG6276 | DRSC27870 | -0.306 | -0.826 | -11.3 | inactive
Oseg4 (Outer segment 4) | DRSC08548 | -0.141 | 0.775 | 0.0805 | inactive
CG7655 | DRSC16275 | -0.442 | -4.18 | -4.9 | active
PIG-A (Phosphatidylinositol glycan anchor biosynthesis class A) | DRSC06982 | 0.222 | 0.776 | -0.785 | inactive
Gpdh1 (Glycerol-3-phosphate dehydrogenase 1) | DRSC03336 | -0.108 | 1.56 | 0.0872 | inactive
Gpdh1 (Glycerol-3-phosphate dehydrogenase 1) | DRSC21666 | 0.017 | -0.17 | -0.826 | inactive
Adss (Adenylosuccinate synthetase) | DRSC14162 | 0.53 | -0.371 | -1.31 | inactive
Adss (Adenylosuccinate synthetase) | DRSC30079 | 0.479 | 0.395 | -0.852 | inactive
CG14282 | DRSC14763 | 0.465 | -0.0413 | -0.299 | inactive
CG14282 | DRSC26234 | -0.875 | -2.57 | -0.871 | inactive
CG12118 | DRSC17813 | -0.268 | 0.212 | -0.351 | inactive
CG12895 | DRSC06210 | -0.975 | 0.0417 | -0.108 | inactive
CG12895 | DRSC25590 | -0.319 | -0.0584 | 0.288 | inactive
CG9922 | DRSC16579 | -0.0409 | -0.852 | -0.0207 | inactive
CG9922 | DRSC29719 | 0.671 | -5.56 | -0.342 | inactive
CG9372 | DRSC11068 | -2.25 | -1.1 | -0.108 | inactive
Lcp65APsi (pseudo) | DRSC08795 | -0.342 | -6.72 | -0.0322 | inactive
Lcp65APsi (pseudo) | DRSC10342 | 0.268 | 0.555 | 1.11 | inactive
grp (grapes) | DRSC40694 | 0.0148 | 0.217 | 0.317 | inactive
CG33986 | DRSC37802 | 0.356 | 0.895 | 0.606 | inactive
ranshi | DRSC16564 | 0.755 | -2.41 | 0.673 | inactive
ranshi | DRSC29605 | -2.11 | 0.187 | -2.21 | active
CG13869 + CG11099 | DRSC24218 | 0.46 | -1.93 | 0.832 | inactive
CG8642 | DRSC07228 | -0.383 | -1.29 | -0.333 | inactive
Pu (Punch) | DRSC04645 | 0.812 | -0.0832 | -1.39 | inactive
Pu (Punch) | DRSC29066 | -0.854 | -0.533 | -0.782 | inactive
CG15550 | DRSC15088 | -0.573 | -0.808 | -0.632 | inactive
CG15550 | DRSC29401 | 0.505 | 0.109 | 0.225 | inactive
